{"source": "PubChem BioAssay AID624099, ICCB-Longwood – 2012", "purpose": "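Knock-downs relieving repression by E2 of an HPV18 LCR luciferase reporter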 (primary screen)", "system": "human C33A cervical carcinoma cells (HPV-negative) stably expressing BPV1 E2 and an HPV18 LCR luciferase reporter", "knock-down reagent": "siRNA pool against human genes, 40 nM", "timing": "72 h", "read-out": "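Per-well luciferase luminescence, z-scored on each plate against the plate mean and SD with control wells left out, then averaged across three replicate plates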", "reading the numbers": "mean z-score and z-score: higher = stronger reporter signal, weaker E2 silencing", "active means": "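Mean z ≥ 2 together with z ≥ 2 in two or more of the three replicates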", "note": "In all, the deposit lists about 21,000 reagents; this is an unselected part. In the full data, 497 (2.4%) got an active call. 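Higher z means weaker E2 silencing; only reporter increases were scored, and knock-downs that hurt cell survival may mask genuine repressor factors.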 Entries without a mark were called inactive."}
{"Gene":"TCEANC2","mean z-score":0.02,"z-score, replicate A":0.16,"z-score, replicate B":0.08,"z-score, replicate C":-0.19}
{"Gene":"ANKRD55","mean z-score":-0.16,"z-score, replicate A":-0.44,"z-score, replicate B":-0.28,"z-score, replicate C":0.23}
{"Gene":"KIF25","mean z-score":-0.1,"z-score, replicate A":-0.16,"z-score, replicate B":-0.13,"z-score, replicate C":0}
{"Gene":"LOC389031 (retired record)","mean z-score":0.35,"z-score, replicate A":0.66,"z-score, replicate B":0.46,"z-score, replicate C":-0.06}
{"Gene":"KCNG1","mean z-score":-0.06,"z-score, replicate A":0.45,"z-score, replicate B":-0.44,"z-score, replicate C":-0.18}
{"Gene":"DSN1","mean z-score":0.62,"z-score, replicate A":0.8,"z-score, replicate B":0.46,"z-score, replicate C":0.62}
{"Gene":"NXPH1","mean z-score":-0.41,"z-score, replicate A":-0.37,"z-score, replicate B":-0.15,"z-score, replicate C":-0.7}
{"Gene":"ENPP3","mean z-score":-0.38,"z-score, replicate A":-0.1,"z-score, replicate B":-0.5,"z-score, replicate C":-0.55}
{"Gene":"MAP2K4","mean z-score":-0.14,"z-score, replicate A":-0.31,"z-score, replicate B":-0.16,"z-score, replicate C":0.06}
{"Gene":"POLL","mean z-score":-0.36,"z-score, replicate A":-0.24,"z-score, replicate B":-0.26,"z-score, replicate C":-0.58}
{"Gene":"FAM47A","mean z-score":-0.38,"z-score, replicate A":-0.76,"z-score, replicate B":0.07,"z-score, replicate C":-0.45}
{"Gene":"RIT2","mean z-score":-0.46,"z-score, replicate A":-0.47,"z-score, replicate B":-0.4,"z-score, replicate C":-0.5}

Entries above whose gene name starts with K or k:
{"Gene":"KIF25","mean z-score":-0.1,"z-score, replicate A":-0.16,"z-score, replicate B":-0.13,"z-score, replicate C":0}
{"Gene":"KCNG1","mean z-score":-0.06,"z-score, replicate A":0.45,"z-score, replicate B":-0.44,"z-score, replicate C":-0.18}
